{"source": "paper PMC11628845", "about": "(Acta Pharmaceutica Sinica. B, 2024)", "system": "wild type HBV (pHBV 1.3)", "format": "cell-based", "conditions": "read-out: HBV DNA IC50; Wide type (pHBV 1.3)", "note": "pIC50: −log10 of the molar value."}
{"substance": "GLS4", "values": [{"measurement": "pIC50", "result": 8.68}]}
